Substitutions are numbered along the chain they refer to.
B1: Antibody A-1 (antibody, human IgG1, kappa)
heavy: QVQLLQSGAAVTKPGASVRVSCEASGYNIRDYFIHWWRQAPGQGLQWVGWINPKTGQPNNPRQFQGRVSLTRHASWDFDTFSFYMDLKALRSDDTAVYFCARQRSDYWDFDVWGSGTQVTVSSASTKGPSVFPLAPSSKSTSGGTAALGCLVKDYFPEPVTVSWNSGALTSGVHTFPAVLQSSGLYSLSSVVTVPSSSLGTQTYICNVNHKPSNTKVDKKVEPKSCDKTHTCPPCPAPELLAGPDVFLFPPKPKDTLMISRTPEVTCVVVDVSHEDPEVKFNWYVDGVEVHNAKTKPREEQYNSTYRVVSVLTVLHQDWLNGKEYKCKVSNKALPLPEEKTISKAKGQPREPQVYTLPPSREEMTKNQVSLTCLVKGFYPSDIAVEWESNGQPENNYKTTPPVLDSDGSFFLYSKLTVDKSRWQQGNVFSCSVLHEALHSHYTQKSLSLSPGK
light: not shown
B2: 1.1.138-1 (antibody, human IgG1, kappa)
heavy: B1 heavy
light: not shown
B3: 1.52.1-1 (antibody, human IgG1, kappa)
heavy: B1 heavy with W76F
light: not shown

What was measured:
Test in all cases: cell-based or functional assay
[1] = molecular target: HIV envelope glycoprotein gp120 of virus VS003 (HIV-1)
[2] = molecular target: HIV envelope glycoprotein gp120 of virus VS046 (HIV-1)
[3] = molecular target: HIV envelope glycoprotein gp120 of virus VS001 (HIV-1)
[4] = molecular target: HIV envelope glycoprotein gp120 of virus VS026 (HIV-1)
[5] = molecular target: HIV envelope glycoprotein gp120 of virus VS052 (HIV-1)
[6] = molecular target: HIV envelope glycoprotein gp120 of virus US657 (HIV-1)
[7] = molecular target: HIV envelope glycoprotein gp120 of virus VS043 (HIV-1)
[8] = molecular target: HIV envelope glycoprotein gp120 of virus VS004 (HIV-1)
[9] = molecular target: HIV envelope glycoprotein gp120 of virus VS003 (HIV-1); remark: listed apart in the source
[10] = molecular target: HIV envelope glycoprotein gp120 of virus VS046 (HIV-1); remark: listed apart in the source
[11] = molecular target: HIV envelope glycoprotein gp120 of virus VS001 (HIV-1); remark: listed apart in the source
[12] = molecular target: HIV envelope glycoprotein gp120 of virus VS026 (HIV-1); remark: listed apart in the source
[13] = molecular target: HIV envelope glycoprotein gp120 of virus VS052 (HIV-1); remark: listed apart in the source
[14] = molecular target: HIV envelope glycoprotein gp120 of virus US657 (HIV-1); remark: listed apart in the source
[15] = molecular target: HIV envelope glycoprotein gp120 of virus VS043 (HIV-1); remark: listed apart in the source
[16] = molecular target: HIV envelope glycoprotein gp120 of virus VS004 (HIV-1); remark: listed apart in the source
[17] = molecular target: HIV envelope glycoprotein gp120 of virus VS002 (HIV-1)
[18] = molecular target: HIV envelope glycoprotein gp120 of virus VS011 (HIV-1)
[19] = molecular target: HIV envelope glycoprotein gp120 of virus VS017 (HIV-1)
[20] = molecular target: HIV envelope glycoprotein gp120 of virus VS030 (HIV-1)
[21] = molecular target: HIV envelope glycoprotein gp120 of virus VS032 (HIV-1)
[22] = molecular target: HIV envelope glycoprotein gp120 of virus VS033 (HIV-1)
[23] = molecular target: HIV envelope glycoprotein gp120 of virus VS034 (HIV-1)
[24] = molecular target: HIV envelope glycoprotein gp120 of virus VS038 (HIV-1)
[25] = molecular target: HIV envelope glycoprotein gp120 of virus VS039 (HIV-1)
[26] = molecular target: HIV envelope glycoprotein gp120 of virus VS042 (HIV-1)
[27] = molecular target: HIV envelope glycoprotein gp120 of virus VS044 (HIV-1)
[28] = molecular target: HIV envelope glycoprotein gp120 of virus VS053 (HIV-1)

Binder	HIV neutralization IC50 [1] [mg/L]	HIV neutralization IC50 [2] [mg/L]	HIV neutralization IC50 [3] [mg/L]	HIV neutralization IC50 [4] [mg/L]	HIV neutralization IC50 [5] [mg/L]	HIV neutralization IC50 [6] [mg/L]	HIV neutralization IC50 [7] [mg/L]	HIV neutralization IC50 [8] [mg/L]	Avg. IC50 (HIV neutralization) [9] [mg/L]	Avg. IC50 (HIV neutralization) [10] [mg/L]	Avg. IC50 (HIV neutralization) [11] [mg/L]	Avg. IC50 (HIV neutralization) [12] [mg/L]	Avg. IC50 (HIV neutralization) [13] [mg/L]	Avg. IC50 (HIV neutralization) [14] [mg/L]	Avg. IC50 (HIV neutralization) [15] [mg/L]	Avg. IC50 (HIV neutralization) [16] [mg/L]	Avg. IC50 (HIV neutralization) [17] [mg/L]	Avg. IC50 (HIV neutralization) [18] [mg/L]	Avg. IC50 (HIV neutralization) [19] [mg/L]	Avg. IC50 (HIV neutralization) [20] [mg/L]	other results
B1	0.03	0.03	0.08	0.26	0.38	0.86	1.47	3.42	0.027	0.029	0.08	0.259	0.381	0.864	1.47	3.42	0.024	0.147	0.443	1.61	Avg. IC50 (HIV neutralization) [21]: 0.256 mg/L; Avg. IC50 (HIV neutralization) [22]: 0.207 mg/L; Avg. IC50 (HIV neutralization) [23]: 0.358 mg/L; Avg. IC50 (HIV neutralization) [24]: 0.21 mg/L; Avg. IC50 (HIV neutralization) [25]: 0.121 mg/L; Avg. IC50 (HIV neutralization) [26]: 3.17 mg/L; Avg. IC50 (HIV neutralization) [27]: 0.312 mg/L; Avg. IC50 (HIV neutralization) [28]: 0.53 mg/L
B2	0.06	0.04	0.18	0.35	0.46	0.54	1.41	39.2	0.06	0.04	0.18	0.35	0.45	0.55	1.41	39.2	0.03	0.25	2.02	2.81	Avg. IC50 (HIV neutralization) [21]: 0.25 mg/L; Avg. IC50 (HIV neutralization) [22]: 0.19 mg/L; Avg. IC50 (HIV neutralization) [23]: 0.45 mg/L; Avg. IC50 (HIV neutralization) [24]: 0.12 mg/L; Avg. IC50 (HIV neutralization) [25]: 0.07 mg/L; Avg. IC50 (HIV neutralization) [26]: 1.73 mg/L; Avg. IC50 (HIV neutralization) [27]: 0.36 mg/L; Avg. IC50 (HIV neutralization) [28]: 1.52 mg/L
B3	0.05	0.06	0.21	0.48	0.54	0.69	1.39	9.9	0.04	0.05	0.21	0.48	0.54	0.44	1.39	9.9	0.05	0.33	3.01	4.86	Avg. IC50 (HIV neutralization) [21]: 0.27 mg/L; Avg. IC50 (HIV neutralization) [22]: 0.27 mg/L; Avg. IC50 (HIV neutralization) [23]: 0.28 mg/L; Avg. IC50 (HIV neutralization) [24]: 0.4 mg/L; Avg. IC50 (HIV neutralization) [25]: 0.17 mg/L; Avg. IC50 (HIV neutralization) [26]: 4.54 mg/L; Avg. IC50 (HIV neutralization) [27]: 0.16 mg/L; Avg. IC50 (HIV neutralization) [28]: 1.07 mg/L
